Anti-infective test results gathered from many reports (values: NIAID ChemDB through PubChem).

All rows: tests in culture; organism: Mycobacterium tuberculosis

ECn is the concentration giving n% inhibition of infection, replication or growth.

SMILES	strain or isolate	dose	method	read-out	value
O=c1cc(-c2cccc(-c3cccc4c(=O)cc(-c5ccccc5)oc34)c2)oc2ccccc12				EC50	>12.5 µg/mL
COC(=O)C(NC(=O)c1ccc(N)cc1)c1ccccc1	H37Rv			MIC	50 µg/mL
COc1ccc(CCc2cc(OC)c3ccccc3n2)cc1OC	MT3			MIC	50 µg/mL
NCC[C@H](O)C(=O)N[C@@H]1C[C@H](N)[C@@H](O[C@H]2O[C@H](CN)[C@@H](O)[C@H](O)[C@H]2O)[C@H](O)[C@H]1O[C@H]1O[C@H](CO)[C@@H](O)[C@H](N)[C@H]1O	9R			MIC	2.5 µg/mL
C=CCN(CCNCCc1ccccc1Cl)C1CCCC1				MIC	12.5 µM
COc1ccc(C2Oc3ccc(C(=O)O)cc3C(=O)C2O)cc1	H37Rv	12.5 µg/mL		inhibition	0%
C[C@H]1COc2c(N3CCN(C)CC3)c(F)cc3c(=O)c(C(=O)O)cn1c23	Isolate 1			MIC	2 µg/mL
C[C@H]1COc2c(N3CCN(C)CC3)c(F)cc3c(=O)c(C(=O)O)cn1c23	8R			MIC	0.5 µg/mL
CC(CNCCNC(C)(C)CO)c1ccccc1				MIC	50 µM
CCC1=CC(CC)C2C(=O)N(c3ccc(C)cc3)C1C2C(=O)O	H37Rv			MIC	>100 µg/mL
Cc1ccc(CNCCNCc2ccccc2)cc1				MIC	25 µM
CCOC(=O)c1[nH]c(C)c(C(=O)OCC)c1C	H37Rv			MIC	>100 µg/mL
C[C@@H]1CN(c2c(F)c(N)c3c(=O)c(C(=O)O)cn(C4CC4)c3c2F)C[C@H](C)N1	Isolate 9			MIC	2 µg/mL
CC(CNCC(c1ccccc1)c1ccccc1)N[C@@H]1C[C@@H]2C[C@H]([C@H]1C)C2(C)C				MIC	50 µM
COc1ccc(CCC2CCc3ccccc3N2C)cc1OC	MT10			MIC	>322 µg/mL
CC[C@@H](CO)NCCN[C@@H](CC)CO	Isolate 3			MIC	8 µg/mL
Nc1nnns1	H37Rv			MIC	100 µg/mL
COc1ccc(OC)c(CCNCCNCc2ccccc2Sc2ccccc2CO)c1				MIC	50 µM
Cc1cc(C)c(C(=O)/C(N=O)=C(\O)c2ccccc2)c(C)c1	H37Rv			MIC	50 µg/mL
O=C(/C=C/c1cccc(O)c1)c1ccccc1O	H37Rv	12.5 µg/mL		inhibition	18%
Cl.Cl.O=C(Nc1ccc(C2=NCCN2)cc1)c1cccc(NC(=S)Nc2ccc(C3=NCCN3)cc2)c1	H37Rv		BACTEC	MIC bound	>12.5 µg/mL
CC(C)c1ccc2c(c1)CC[C@H]1[C@](C)(CNCCNCc3ccco3)CCC[C@]21C				MIC	50 µM
COc1ccc(/C=C2/C=C(C)OC2=O)c(OC)c1	H37Rv			MIC	>100 µg/mL
Fc1ccccc1CCNCCNCCc1ccccc1F				MIC	25 µM
COc1cc(CC(=O)O)cc(OC)c1	H37Rv			MIC	>100 µg/mL
CCCCCCCCCCCNCCNN1CCCC1				MIC	50 µM
CCCCCCC(C)CCC(=O)O	H37Rv			MIC	50 µg/mL
Cc1cc(NC(=O)CCc2ccc(N3C(N)=NC(N)=NC3(C)C)cc2Cl)ccc1S(=O)(=O)F	H37Rv	12.5 µg/mL	BACTEC	inhibition	74%
CC(NN)C(=O)O	H37Rv			MIC	>100 µg/mL
COc1ccc(C2Oc3c(I)cccc3C(=O)C2O)cc1		12.5 µg/mL		inhibition	6%
CO[C@H]1/C=C/O[C@@]2(C)Oc3c(C)c(O)c4c(O)c(c(/C=N/N5CCN(C/C=C/c6ccccc6)CC5)c(O)c4c3C2=O)NC(=O)/C(C)=C\C=C\[C@H](C)[C@H](O)[C@@H](C)[C@@H](O)[C@@H](C)[C@H](OC(C)=O)[C@@H]1C	2219 (rifampin-resistant)			MBC	0.8 µg/mL
Nc1ccc2ccc(S(=O)(=O)O)cc2c1	H37Rv			MIC	100 µg/mL
CO[C@H]1/C=C/O[C@@]2(C)Oc3c(C)c(O)c4c(=O)c(c5oc6cc(N7CCN(CC(C)C)CC7)cc(=O)c6nc5c4c3=C2O)NC(=O)/C(C)=C\C=C\[C@H](C)[C@H](O)[C@@H](C)[C@@H](O)[C@@H](C)[C@H](OC(C)=O)[C@@H]1C	2912 (rifampin-sensitive)			MBC	0.006 µg/mL
NC(=S)C1CC=CCC1	H37Rv			MIC	50 µg/mL

A second listing of 3 rows from above:

SMILES,strain or isolate,dose,method,read-out,value
Nc1nnns1,H37Rv,,,MIC,100 µg/mL
COc1ccc(/C=C2/C=C(C)OC2=O)c(OC)c1,H37Rv,,,MIC,>100 µg/mL
CC(NN)C(=O)O,H37Rv,,,MIC,>100 µg/mL

Rows are shuffled and stem from different studies. Blank or dashed fields: not listed here. MIC bound comes from a single tested concentration. Inhibition is in % at the dose shown (toxicity tests: loss of growth or viability).